The text below walks through data of patent US7332200B1, “Permeabilizing biofilms” (The General Hospital Corporation, priority 1999, dated 2008).

The series deals with A. viscosus biofilm. The series is described as follows: Penetration of methylene blue into A. viscosus biofilms on enamel, with or without a laser stress wave (fluorescence confocal microscopy).

For the compound `CN(C)c1ccc2nc3ccc(=[N+](C)C)cc-3sc2c1` [methylene blue], the “depth to which fluorescence was observed in the biofilm” value (50 μg/ml methylene blue 5 minutes, single laser-generated stress wave (600 bar peak pressure)) is 600-700 μm. Also, for the setting “control: 50 μg/ml methylene blue 5 minutes, no stress wave”, the “depth to which fluorescent intensity was increased in the biofilm” value is recorded as “no more than 400 μm”.
